{"source": "patent US20220033460A1", "about": "“IDENTIFICATION AND USE OF T CELL EPITOPES IN DESIGNING DIAGNOSTIC AND THERAPEUTIC APPROACHES FOR COVID-19” (priority 2020, published 2022)", "key": {"CD8+ T cells [1]": {"system": "CD8+ T cells", "assay_type": "cell-based, human", "details": "for specificity to SARS-CoV-2 antigens, count per antigen: acute and convalescent COVID-19 patients; for specificity to SARS-CoV-2 antigens, count per antigen, Summary: sum over the four HLA alleles; for No. of Cells: cells of the TCR clonotype specific for the epitope / HLA class I of the same line"}, "I-Ab": {"target": "T1, I-Ab (Mus musculus, UniProt P14434+P14483)", "T1 sequence (P14483 28-265)": "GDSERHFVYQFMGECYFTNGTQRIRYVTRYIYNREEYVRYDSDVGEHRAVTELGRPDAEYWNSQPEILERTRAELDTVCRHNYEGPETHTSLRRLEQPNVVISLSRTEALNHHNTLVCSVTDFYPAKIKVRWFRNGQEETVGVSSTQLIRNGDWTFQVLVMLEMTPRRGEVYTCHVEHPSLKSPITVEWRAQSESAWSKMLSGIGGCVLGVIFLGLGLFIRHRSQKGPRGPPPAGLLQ", "T1 sequence (P14434 24-256)": "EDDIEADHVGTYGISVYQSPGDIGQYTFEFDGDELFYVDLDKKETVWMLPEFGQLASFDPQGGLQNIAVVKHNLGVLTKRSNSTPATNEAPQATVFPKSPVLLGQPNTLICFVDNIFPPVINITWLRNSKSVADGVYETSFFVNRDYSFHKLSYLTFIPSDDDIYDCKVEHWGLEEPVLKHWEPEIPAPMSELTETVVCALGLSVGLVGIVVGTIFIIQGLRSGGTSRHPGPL", "details": "I-Ab presented peptides cloned in MCR2 vector; read-out: IC50 (I-Ab binding affinity); cited from earlier work"}, "CD8+ T cells [2]": {"system": "CD8+ T cells"}, "TCR115": {"system": "TCR115", "test": "MCR system screening of TCR115 and HLA-II presentation of M protein epitopes (Example 19)", "assay_type": "cell-based, human", "details": "T cells expressing the TCR"}}, "note": "“And” between values parts separate entries of the source, which are not always exact repeats. Equal values may be shown once. Read-outs that look alike come from different tables or passages of the source."}
{"molecule": "SARS2_3A: SARS-CoV-2 antigen 3A", "values": [{"measurement": "specificity to SARS-CoV-2 antigens, count per antigen", "setting": "CD8+ T cells [1]; A*01:01", "value": 6}, {"measurement": "specificity to SARS-CoV-2 antigens, count per antigen", "setting": "CD8+ T cells [1]; A*02:01", "value": 73}, {"measurement": "specificity to SARS-CoV-2 antigens, count per antigen", "setting": "CD8+ T cells [1]; A*24:02", "value": 6}, {"measurement": "specificity to SARS-CoV-2 antigens, count per antigen", "setting": "CD8+ T cells [1]; B*07:02", "value": 1}, {"measurement": "specificity to SARS-CoV-2 antigens, count per antigen, Summary", "setting": "CD8+ T cells [1]", "value": 86}]}
{"molecule": "YDMFNLLLMKPLGIE", "values": [{"measurement": "IC50", "setting": "I-Ab", "value": 6.75, "unit": "µM"}]}
{"molecule": "TCR_124: TCR to YYQLYSTQL / A*24:02 (TCR alpha CAMSPNNAGNMLTF; TCR beta CASSLEMQGALYGYTF)", "values": [{"measurement": "No. of Cells", "setting": "CD8+ T cells [1]", "value": 3}]}
{"molecule": "CC(C)C[C@H](NC(=O)[C@H](CCC(N)=O)NC(=O)[C@H](CC(N)=O)NC(=O)[C@H](CC(C)C)NC(=O)[C@H](CCCNC(=N)N)NC(=O)[C@H](CC(=O)O)NC(=O)[C@H](CC(C)C)NC(=O)[C@H](CC(C)C)NC(=O)[C@@H](N)CC(C)C)C(=O)O", "values": [{"measurement": "proportion of epitope-specific T cells in cytotoxic terminal effector (C7)", "setting": "CD8+ T cells [2]; convalescent donors", "value": 61, "unit": "%"}]}
{"molecule": "TCR_125: TCR to SPRWYFYYL / B*07:02 (TCR alpha CALNQDRGSTLGRLYF; TCR beta CASSLFSSGQGNGYTF)", "values": [{"measurement": "No. of Cells", "setting": "CD8+ T cells [1]", "value": 3}]}
{"molecule": "TCR_113: TCR to YLQPRTFLL / A*02:01 (TCR alpha CAVRGADNARLMF; TCR beta CASSSVSLGNEQFF)", "values": [{"measurement": "No. of Cells", "setting": "CD8+ T cells [1]", "value": 4}]}
{"molecule": "SARS2_9B: SARS-CoV-2 antigen 9B", "values": [{"measurement": "specificity to SARS-CoV-2 antigens, count per antigen", "setting": "CD8+ T cells [1]; A*02:01", "value": 9}, {"measurement": "specificity to SARS-CoV-2 antigens, count per antigen, Summary", "setting": "CD8+ T cells [1]", "value": 9}]}
{"molecule": "LLYDANYFL (SARS-CoV-2 3A epitope)", "values": [{"measurement": "No. of Clono Types", "setting": "CD8+ T cells [1]; CDR3alpha motif group", "value": 20}, {"measurement": "No. of subjects", "setting": "CD8+ T cells [1]; CDR3alpha motif group", "value": 9}, {"measurement": "Total Cells", "setting": "CD8+ T cells [1]; CDR3alpha motif group", "value": 30}, {"measurement": "No. of subjects", "setting": "CD8+ T cells [1]; CDR3beta motif group", "value": "5 and 3"}, {"measurement": "Total Cells", "setting": "CD8+ T cells [1]; CDR3beta motif group", "value": "9 and 7 and 10"}, {"measurement": "proportion of epitope-specific T cells in central memory (C2)", "setting": "CD8+ T cells [2]; convalescent donors", "value": 42, "unit": "%"}]}
{"molecule": "FTSDYYQLY (SARS-CoV-2 epitope)", "values": [{"measurement": "No. of Clono Types", "setting": "CD8+ T cells [1]; CDR3alpha motif group", "value": 1}, {"measurement": "No. of subjects", "setting": "CD8+ T cells [1]; CDR3alpha motif group", "value": 2}, {"measurement": "Total Cells", "setting": "CD8+ T cells [1]; CDR3alpha motif group", "value": 5}, {"measurement": "No. of Clono Types", "setting": "CD8+ T cells [1]; CDR3beta motif group", "value": 2}, {"measurement": "No. of subjects", "setting": "CD8+ T cells [1]; CDR3beta motif group", "value": 2}, {"measurement": "Total Cells", "setting": "CD8+ T cells [1]; CDR3beta motif group", "value": 10}]}
{"molecule": "TSQWLTNIF (SARS-CoV-2 epitope)", "values": [{"measurement": "proportion of epitope-specific T cells in central memory (C2)", "setting": "CD8+ T cells [2]; unexposed subjects", "value": 70, "unit": "%"}]}
{"molecule": "AWENTTIDLTSEKPA", "values": [{"measurement": "IC50", "setting": "I-Ab", "value": 10, "unit": "µM"}]}
{"molecule": "VYIGDPAQL (SARS-CoV-2 ORF1AB epitope)", "values": [{"measurement": "share of unexposed subjects with epitope-specific CD8+ T cells", "setting": "CD8+ T cells [1]; unexposed subjects with the HLA allele", "value": "not detected"}]}
{"molecule": "IEYAKLYVLSPILAE", "values": [{"measurement": "IC50", "setting": "I-Ab", "value": 0.282, "unit": "µM"}]}
{"molecule": "TCR_115: TCR to SPRWYFYYL / B*07:02 (TCR alpha CAAMNNTNAGKSTF; TCR beta CASSLFSSGQGNGYTF)", "values": [{"measurement": "No. of Cells", "setting": "CD8+ T cells [1]", "value": 3}]}
{"molecule": "TCR_128: TCR to SPRWYFYYL / B*07:02 (TCR alpha CAMSASPNDMRF; TCR beta CASSYYPSASGRADETQYF)", "values": [{"measurement": "No. of Cells", "setting": "CD8+ T cells [1]", "value": 2}]}
{"molecule": "TCR_123: TCR to YLQPRTFLL / A*02:01 (TCR alpha CVVNGYNTDKLIF; TCR beta CASSSVSLGNEQFF)", "values": [{"measurement": "No. of Cells", "setting": "CD8+ T cells [1]", "value": 4}]}
{"molecule": "RIRGGDGKM (SARS-CoV-2 N Protein epitope)", "values": [{"measurement": "No. of Clono Types", "setting": "CD8+ T cells [1]; CDR3alpha motif group", "value": 2}, {"measurement": "No. of subjects", "setting": "CD8+ T cells [1]; CDR3alpha motif group", "value": 2}, {"measurement": "Total Cells", "setting": "CD8+ T cells [1]; CDR3alpha motif group", "value": 3}, {"measurement": "No. of Clono Types", "setting": "CD8+ T cells [1]; CDR3beta motif group", "value": 2}, {"measurement": "No. of subjects", "setting": "CD8+ T cells [1]; CDR3beta motif group", "value": 2}, {"measurement": "Total Cells", "setting": "CD8+ T cells [1]; CDR3beta motif group", "value": 3}]}
{"molecule": "PTDNYITTY (SARS-CoV-2 epitope)", "values": [{"measurement": "No. of Clono Types", "setting": "CD8+ T cells [1]; CDR3alpha motif group", "value": 9}, {"measurement": "No. of subjects", "setting": "CD8+ T cells [1]; CDR3alpha motif group", "value": 2}, {"measurement": "Total Cells", "setting": "CD8+ T cells [1]; CDR3alpha motif group", "value": 13}, {"measurement": "No. of Clono Types", "setting": "CD8+ T cells [1]; CDR3beta motif group", "value": 7}, {"measurement": "No. of subjects", "setting": "CD8+ T cells [1]; CDR3beta motif group", "value": 2}, {"measurement": "Total Cells", "setting": "CD8+ T cells [1]; CDR3beta motif group", "value": 10}, {"measurement": "proportion of epitope-specific T cells in central memory (C2)", "setting": "CD8+ T cells [2]; convalescent donors", "value": 49, "unit": "%"}]}
{"molecule": "TCR115: published TCR of a CD4 T cell clonotype from BAL of patient C141, screened in the MCR system (TCR alpha CAAMNNTNAGKSTF; TCR beta CASSLFSSGQGNGYTF)", "values": [{"measurement": "recognition of the 20mer epitope […] (SEQ ID NO: 306)", "setting": "TCR115", "value": "strongly recognized"}]}
{"molecule": "IIKYNRRLAKSIICE", "values": [{"measurement": "IC50", "setting": "I-Ab", "value": 8.39, "unit": "µM"}]}
{"molecule": "GLVSQLSVLSSITNI", "values": [{"measurement": "IC50", "setting": "I-Ab", "value": 5.28, "unit": "µM"}]}
{"molecule": "CC[C@H](C)[C@H](NC(=O)[C@@H](NC(=O)[C@H](CC(N)=O)NC(=O)[C@H](CCSC)NC(=O)[C@H](CC(C)C)NC(=O)[C@@H](N)[C@@H](C)O)C(C)C)C(=O)N[C@H](C(=O)N[C@@H](CC(C)C)C(=O)N[C@H](C(=O)O)C(C)C)[C@@H](C)O", "values": [{"measurement": "proportion of epitope-specific T cells in cytotoxic terminal effector (C7)", "setting": "CD8+ T cells [2]; convalescent donors", "value": 80, "unit": "%"}]}
